In the data set the test system is P. falciparum female gametocytes. The experiment in a line: P. falciparum female gametogenesis assay (Pf FGAA).
Where [1] appears, read: unified cytotox / Pf FGAA IC50, <10-fold selectivity red, >10-fold green.
[2] abbreviates: unified cytotox / Pf FGAA IC50, red: <10-fold selectivity, green: >10-fold.
The mark [3] stands for this setting: unified cytotox / IC50, <10-fold red, >10-fold green.

Regarding `CN1CCC(N2CCC(Oc3cccc(C(=O)NCCCC4CCCC4)c3)CC2)CC1` [TCMDC-124677], the “Assay tox ratio Pf FGAA” value under setting [1] worked out at 3.34.
With `O=C(NCC1CCN(Cc2cccc(C(F)(F)F)c2)C1)c1cc(-c2cccc(Cl)c2)cs1.O=C(O)C(F)(F)F` (centres unmarked) [TCMDC-134485], the “Assay tox ratio Pf FGAA” value under setting [1] came out at 18.01.
Same read-out and setting: the same measure for `COc1ccccc1C1CCN(C2CCC(NC(=O)c3ccc4[nH]c(-c5ccc(C)cc5)nc4c3)CC2)CC1` (centres unmarked) [TCMDC-133556]: 1.60.
Regarding `CN1CCN(CCCNCc2ccccc2-c2cccc(CNCc3ccc4c(c3)OCO4)c2)CC1.O=C(O)C(F)(F)F` [TCMDC-140476], the “Assay tox ratio Pf FGAA” value under setting [2] was 0.92.
Turning to `CN(C)CCN1CCN(CCCN2c3ccccc3Sc3ccc(C(F)(F)F)cc32)CC1.Cl` [TCMDC-142257], the “Assay tox ratio Pf FGAA” value under setting [2] turned out to be 14.77.
For `COc1cc(/C=C(\C2=NC(=O)CS2)c2nc3cccnc3n2C)ccc1O` [TCMDC-135917], the “Assay tox ratio Pf FGAA” value under setting [1] was 29.44.
Turning to `Nc1nc(N)c2c(ccc3c2ccn3Cc2cccc(F)c2)n1` [TCMDC-137810], the “Assay tox ratio Pf FGAA” value under setting [3] amounted to 0.08.
As to `CN(C)CCN(C)Cc1ccc(-c2ccc3c(Nc4ccc(Oc5ccccn5)cc4)ccnc3c2)o1` [TCMDC-138426], the “Assay tox ratio Pf FGAA” value under setting [1] is recorded as 2.62.
Take `COc1cccc(C23N=C(Nc4nc5ccccc5[nH]4)NC2(c2cccc(OC)c2)NC(Nc2nc4ccccc4[nH]2)=N3)c1` (centres unmarked) [TCMDC-139087]: the “Assay tox ratio Pf FGAA” value under setting [2] was 437.61.
Consider `Cc1ccc(-n2c(Sc3ncnc4sccc34)nnc2N2CCCC2)cc1` [TCMDC-125247], for which, under setting [3], the “Assay tox ratio Pf FGAA” value is 165.77.
With `O=C(Nc1ccc([N+](=O)[O-])cc1)Nc1cc(OCC(F)(F)F)cc(OCC(F)(F)F)c1` [TCMDC-124533], under setting [1], the “Assay tox ratio Pf FGAA” value came to 5.40.
Turning to `COc1ccc(CNC2CCN(C)CC2)cc1-c1ccc(S(=O)(=O)NCc2ccccc2)s1.O=C(O)C(F)(F)F` [TCMDC-132253], the “Assay tox ratio Pf FGAA” value under setting [1] was 3.13.
Still for that read-out and setting: the same measure for `COc1cc2nc(Nc3ccc4c(ccn4Cc4ccccc4)c3)nc(Nc3ccc4c(ccn4Cc4ccccc4)c3)c2cc1OC` [TCMDC-138237]: 8.95.
In the case of `COc1ccc2ccccc2c1CCCCN1CCN(CC(c2ccc(F)cc2)N2CCC2)CC1.O=C(O)C(F)(F)F` (centres unmarked) [TCMDC-135867], the “Assay tox ratio Pf FGAA” value under setting [1] is reported as 0.74.
As for `COc1ccc(NC(=O)c2cccc(Br)c2)cc1N1CCN(CCCCCCCN2CCN(c3cc(NC(=O)c4cccc(Br)c4)ccc3OC)CC2)CC1.Cl` [TCMDC-139020], the “Assay tox ratio Pf FGAA” value under setting [2] was determined as 5.68.
With `CCCCCCCN1CC[C@@H](CCCc2ccnc3ccc(OC)cc23)[C@@H](CNC)C1.O=C(O)C(=O)O` [TCMDC-139875], the “Assay tox ratio Pf FGAA” value under setting [2] was found to be 8.04.
Take `FC(F)(F)c1ccc2[nH]c(-c3ccc(-c4ccc(CNCCN5CCNCC5)cc4)cc3)nc2c1.O=C(O)C(F)(F)F` [TCMDC-132865]: the “Assay tox ratio Pf FGAA” value under setting [1] was found to be 11.65.
Turning to `FC(F)(F)c1ccc2[nH]c(-c3cccc(-c4cccc(CNCCN5CCNCC5)c4)c3)nc2c1.O=C(O)C(F)(F)F` [TCMDC-132871], the “Assay tox ratio Pf FGAA” value under setting [1] worked out at 5.42.
On the same count and under the same terms, the same measure for `N#Cc1ccc(-c2ccc(C(=O)NCC3CCN(CCN4CCC(c5ccc6c(c5OCC(N)=O)CCCC6)CC4)CC3)cc2)cc1` [TCMDC-134563]: 4.88.
For `Cc1cc(Nc2ncc(C#N)c(Nc3ccccc3C(N)=O)n2)ccc1N1CCN(C)CC1.Cl` [TCMDC-134115], under setting [3], the “Assay tox ratio Pf FGAA” value was 1.31.
On to `CC(C)c1ccc(CN2CCC(CNC(=O)c3cc(-c4cccc(Cl)c4)cs3)C2)cc1.O=C(O)C(F)(F)F` (centres unmarked) [TCMDC-134438], for which the “Assay tox ratio Pf FGAA” value under setting [1] was determined as 10.89.
Still for that read-out and setting: next, `O=C(O)C(F)(F)F.O=S(=O)(NCCN1CCCC1)c1ccc(-c2cccc(CNC3Cc4ccccc4C3)c2)s1` [TCMDC-132217]: 4.26; `CCc1c(CCNCCCCCCNCCc2ccc3c(c2C)OCO3)ccc2c1OCO2.Cl` [TCMDC-132093]: 3.81.
As for `Nc1ccc2[nH]cc(C3CCN(CCC4CCN(C(=O)/C=C/c5ccc(Cl)c(Cl)c5)CC4)CC3)c2n1` [TCMDC-140062], the “Assay tox ratio Pf FGAA” value under setting [2] stood at 6.29.
As for `CN(C)Cc1cccc2nc(-c3csc(Cc4cc(Cl)ccc4OCc4ccccc4)n3)[nH]c12` [TCMDC-132174], the “Assay tox ratio Pf FGAA” value under setting [1] stood at 6.21.
With `CCN1CCN(c2ccc(Nc3c4ccccc4nc4ccccc34)cc2)CC1` [TCMDC-124255], the “Assay tox ratio Pf FGAA” value under setting [1] worked out at 4.56.
Regarding `CN1CCC(N2CCN(Cc3cccc(-c4ccc(-c5nc6cc(C(F)(F)F)ccc6[nH]5)cc4)c3)CC2)CC1.O=C(O)C(F)(F)F` [TCMDC-133842], the “Assay tox ratio Pf FGAA” value under setting [1] is recorded as 2.23.
On to `CN(C)CCNCc1ccc(-c2ccc3c(Nc4ccc(Cl)cc4F)ccnc3c2)o1` [TCMDC-138391], for which the “Assay tox ratio Pf FGAA” value under setting [1] amounted to 0.52.
Consider `O=C(Nc1nc(-c2ccccn2)cs1)c1ccc(Br)s1` [TCMDC-123868], for which, under setting [1], the “Assay tox ratio Pf FGAA” value is 32.14.
Still for that read-out and setting: next, `CN1CCCC(CN2CCN(Cc3cccc(-c4ccc(-c5nc6cc(C(F)(F)F)ccc6[nH]5)cc4)c3)CC2)C1.O=C(O)C(F)(F)F` (centres unmarked) [TCMDC-133882]: 3.14; `Cc1noc(C)c1-c1ccc2c(Nc3nccc4ccccc34)c(C(N)=O)cnc2c1` [TCMDC-136456]: 2.50.
In the case of `Nc1nc(N)c2cc(NC(=O)c3ccc(Cl)c(Cl)c3)ccc2n1` [TCMDC-141982], under setting [2], the “Assay tox ratio Pf FGAA” value worked out at 1.35.
For `Cc1ccc(Cl)c2sc(N3CCN(C(=O)c4ccc([N+](=O)[O-])o4)CC3)nc12` [TCMDC-124311], under setting [1], the “Assay tox ratio Pf FGAA” value was determined as 17.93.
For `Cc1c2ccncc2c(C)c2c1[nH]c1cc(Cc3ccccc3)c(O)cc12` [TCMDC-132053], under setting [1], the “Assay tox ratio Pf FGAA” value is 1.13.
Regarding `O=C(O)C(F)(F)F.O=S(=O)(c1ccccc1)n1ccc2cc(Nc3ncnc4cc(C#C[C@H]5CCCN5)sc34)ccc21` [TCMDC-138913], the “Assay tox ratio Pf FGAA” value under setting [2] is 4.71.
On to `Cl.O=S(=O)(Nc1cc2c(cc1OCCCN1CCCCC1)CCNCC2)c1ccc(-c2ccc(Cl)cc2)cc1` [TCMDC-141753], for which the “Assay tox ratio Pf FGAA” value under setting [2] is given as 2.18.
For `CCn1c(-c2nonc2N)nc2c(-c3cccc(NC(=O)Nc4ccc5c(c4)CCC5)c3)ncc(OCCCN)c21.O=C(O)C(F)(F)F` [TCMDC-136191], the “Assay tox ratio Pf FGAA” value under setting [1] was 7.20.
The same measure, in the same setting: the same measure for `CN(C)c1ccc(-c2csc(C(=O)NCC3CCN(Cc4cccc(C(F)(F)F)c4)C3)c2)cc1.O=C(O)C(F)(F)F` (centres unmarked) [TCMDC-134486]: 5.26.
As to `O=C(NC1CCN(CCN2CCC(c3c[nH]c4ccccc34)CC2)CC1)c1ccc(-c2ccc(C(F)(F)F)cc2)cc1` [TCMDC-138845], the “Assay tox ratio Pf FGAA” value under setting [2] was 2.59.
In the case of `Cc1ccc(Cn2nc(Cl)c(N3CCNCC3)cc2=O)cc1NC(=O)Nc1ccc(-c2ccccc2)cc1.O=C(O)C(F)(F)F` [TCMDC-141698], the “Assay tox ratio Pf FGAA” value under setting [2] is on record as 10.79.
Same read-out and setting: the same measure for `CN1CCC=C(C(=O)NCC(C)(C)c2nc(-c3ccc(Cl)c(O)c3)c(-c3ccncc3)[nH]2)C1.Cl` [TCMDC-140700]: 6.98; for `O=C(Nc1cc(Cl)c(Cl)cc1NC(=O)c1cccc(-c2ccccc2)c1O)c1cccc(-c2ccccc2)c1O` [TCMDC-139548]: 2.84; for `Cc1c(N=O)cc(C(C)(C)C)c(O)c1C(=O)Nc1ccc([N+](=O)[O-])cc1Cl` [TCMDC-142233]: 1.51.
The same measure, in the same setting: next, `Cl.O=C(NCCCCN1CCC(c2ccc3c(c2O)CCCC3)CC1)c1ccc(NC(=O)c2ccc(Cl)cc2)cc1` [TCMDC-138645]: 2.55.
On the same count and under the same terms, next, `Cc1cc(N)c2cc(NC(=O)c3cc(C(F)(F)F)cc(C(F)(F)F)c3)ccc2n1.Cl` [TCMDC-139377]: 3.01.
On to `COc1cccc(-c2csc(C(=O)NCC3CCN(Cc4ccc(C(C)C)cc4)C3)c2)c1.O=C(O)C(F)(F)F` (centres unmarked) [TCMDC-134439], for which, under setting [1], the “Assay tox ratio Pf FGAA” value is reported as 8.39.
On the same count and under the same terms, next, `CN1CCN(Cc2ccc(OCc3cccc(COc4ccc(CN5CCN(C)CC5)cc4I)c3)c(I)c2)CC1.Cl` [TCMDC-137239]: 2.71; `Fc1cc(Cl)ccc1Nc1ccnc2cc(-c3ccc(CN4CCOCC4)o3)ccc12` [TCMDC-138393]: 8.82.
For `CCOc1ccc(-n2nc3c(Cl)nnc(-c4ccccc4)c3c2-c2ccccc2)cc1` [TCMDC-123899], under setting [1], the “Assay tox ratio Pf FGAA” value is listed as 106.43.
With `Nc1ccc2[nH]cc(C3CCN(CC4CCC(NC(=O)/C=C/c5ccc(Cl)c(Cl)c5)CC4)CC3)c2n1` (centres unmarked) [TCMDC-140064], the “Assay tox ratio Pf FGAA” value under setting [2] turned out to be 18.13.
The same measure, in the same setting: next, `CNCC(C)(C)c1nc(-c2ccc(Cl)c(O)c2)c(-c2ccncc2)[nH]1.Cl` [TCMDC-140762]: 15.32.
With `Fc1ccc2nc(Nc3nc(-c4ccccn4)cs3)sc2c1` [TCMDC-125540], under setting [1], the “Assay tox ratio Pf FGAA” value was determined as 1073.05.
On the same count and under the same terms, next, `CN1CCCC1CCNCc1cccc(-c2cnc(N3CCCC(C)(C)C3)nc2)c1` (centres unmarked) [TCMDC-133144]: 2.77.
Still for that read-out and setting: next, `CCCCN(CCCC)CCCCNc1c2ccc(Cl)cc2nc2ccc(OC)cc12.Cl` [TCMDC-137460]: 2.41.
Same read-out and setting: the same measure for `CC(C)N1CCN(C(CN2CCN(CCCOc3ccc(-c4ccccc4)cc3)CC2)c2ccc(F)cc2)CC1.Cl` (centres unmarked) [TCMDC-135497]: 1.62.
Turning to `CNCCCNCc1ccc(-c2ccc(F)c(Cl)c2)o1.Cl` [TCMDC-125237], the “Assay tox ratio Pf FGAA” value under setting [1] is given as 5.68.
The same measure, in the same setting: next, `CC(C)N1CCN(C(CN2CCN(CCCOc3ccccc3-c3ccccc3)CC2)c2ccc(F)cc2)CC1.Cl` (centres unmarked) [TCMDC-135499]: 3.06.
In the case of `O=C(Nc1nc(-c2ccccn2)cs1)c1ccc(S(=O)(=O)N2CCc3ccccc32)cc1` [TCMDC-125432], under setting [3], the “Assay tox ratio Pf FGAA” value came out at 15.68.
For the compound `c1ccn2c(Sc3ncnc4sccc34)ncc2c1` [TCMDC-124602], the “Assay tox ratio Pf FGAA” value under setting [1] is recorded as 413.79.
Regarding `CCn1c2ccccc2c2cc(C=NN=c3cc(C)[nH]c4ccccc34)ccc21` [TCMDC-142186], the “Assay tox ratio Pf FGAA” value under setting [2] amounted to 1.40.
`CCCC(=O)NC(c1ccc(C)cc1)c1ccc2cccnc2c1O` (centres unmarked) [TCMDC-123605]: the “Assay tox ratio Pf FGAA” value under setting [1] is listed as 5.32.
For `CC(C)C1=CC(=NOS(=O)(=O)c2ccccc2)C=C(C(C)C)C1=O` [TCMDC-124172], under setting [1], the “Assay tox ratio Pf FGAA” value is given as 24.74.

(Values after paper PMC6753678, “Fueling Open Innovation for Malaria Transmission-Blocking Drugs: Hundreds of Molecules Targeting Early Parasite Mosquito Stages” (Frontiers in Microbiology, 2019).)
